Data from publication PMC11109247 (2024).

Columns and labels:
[1] = target: T1, recombinant HeV G ectodomain (residues 71-604) (Hendra virus (HeV), UniProt O89343 71-604); assay: competition with ephrin-B3-Fc
T1 chain: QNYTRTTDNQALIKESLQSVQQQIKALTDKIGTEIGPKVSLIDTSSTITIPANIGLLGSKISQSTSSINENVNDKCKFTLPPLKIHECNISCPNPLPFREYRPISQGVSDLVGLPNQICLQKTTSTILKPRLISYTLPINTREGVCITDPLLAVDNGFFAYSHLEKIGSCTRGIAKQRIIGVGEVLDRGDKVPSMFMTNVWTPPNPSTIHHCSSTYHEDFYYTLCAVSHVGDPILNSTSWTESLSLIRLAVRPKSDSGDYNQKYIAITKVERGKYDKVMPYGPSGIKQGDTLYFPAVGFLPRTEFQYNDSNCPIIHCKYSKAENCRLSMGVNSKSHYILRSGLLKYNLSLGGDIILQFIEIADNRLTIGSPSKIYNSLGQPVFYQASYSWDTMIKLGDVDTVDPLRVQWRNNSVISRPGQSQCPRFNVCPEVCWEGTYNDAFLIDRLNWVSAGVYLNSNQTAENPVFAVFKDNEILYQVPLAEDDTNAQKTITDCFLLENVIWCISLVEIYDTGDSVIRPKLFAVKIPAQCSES

[2] = target: T2, recombinant NiVMY G ectodomain (residues 71-602, Strep-tag) (Nipah virus Malaysia (NiVMY), UniProt Q9IH62 71-602); assay: competition with ephrin-B3-Fc
T2 chain: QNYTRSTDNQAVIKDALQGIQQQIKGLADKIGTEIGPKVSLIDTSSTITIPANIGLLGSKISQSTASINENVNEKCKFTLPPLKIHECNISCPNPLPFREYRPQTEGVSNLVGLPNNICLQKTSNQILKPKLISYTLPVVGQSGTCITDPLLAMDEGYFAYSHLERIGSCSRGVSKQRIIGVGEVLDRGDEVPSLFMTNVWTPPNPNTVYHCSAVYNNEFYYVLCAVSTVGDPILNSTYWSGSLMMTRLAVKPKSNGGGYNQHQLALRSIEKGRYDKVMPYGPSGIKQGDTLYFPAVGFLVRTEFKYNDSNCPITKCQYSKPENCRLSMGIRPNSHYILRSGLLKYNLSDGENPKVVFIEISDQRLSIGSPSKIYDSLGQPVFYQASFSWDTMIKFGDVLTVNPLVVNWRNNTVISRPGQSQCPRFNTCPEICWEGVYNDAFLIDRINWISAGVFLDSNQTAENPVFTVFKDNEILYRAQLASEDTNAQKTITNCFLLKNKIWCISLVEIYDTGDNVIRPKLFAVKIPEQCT

[3] = target: T1, recombinant HeV G ectodomain (residues …); assay: competition with ephrin-B2-Fc
[4] = target: T2, recombinant NiVMY G ectodomain …; assay: competition with ephrin-B2-Fc

B1: 1E5 (chimeric macaque-human IgG1 antibody) (antibody, V domains shown)
VH: QVQLQESGPGVVKPSETLSLTCAVSGGSISDTYRWSWIRQPPGKGLEWIGYIYGSATSTYYNPSLSSRVTISKDMSKNQFSLNLNSVTAADTAVYYCARDYQYYYSGSYPTPHNWFDVWGPGVLVTVSS
VL: DIQMTQSPSSLSASVGDRVTITCRASQGIIDYLSWYQQKPGKAPKLLISTASNLESGVPSRFSGSGSGTEFTLTISSLQPEDFATYSCLQGYTTPYTFGQGTKVEIK
IC50 [1]: 0.16 mg/L
IC50 [2]: 0.06 mg/L
IC50 [3]: 1.01 mg/L
IC50 [4]: 0.11 mg/L
